# PMC6172217, “A handheld platform for target protein detection and quantification using disposable nanopore strips” (Scientific Reports, 2018)
# System: 309 bp DNA/PNA-affibody detection reagent
# Experiment: Nanopore detection of TNFα
# Format: binding
substance,measurement,setting,value
TNFα,detection outcome,0.75 nM,not positively detected
same,positively detected range above the pore,"99% positive, three nanopore experiments",78 to 1950 µg/L
same,TTP,"P29, TNFα 0.75 nM, X 0.25, np = criterion not satisfied",np and not positive
same,TTP,"P29, TNFα 1.5 nM, X 0.5",138 s
same,TTP,"P29, TNFα 3 nM, X 1",41 s
same,TTP,"P29, TNFα 9 nM, X 3",10 s
same,TTP,"P29, TNFα 18 nM, X 6",5.3 s and 5 s
same,TTP,"P29, TNFα 37.5 nM, X 12.5",5.6 s and 6 s
same,TTP,"P30, TNFα 0.75 nM, np = criterion not satisfied",np
same,TTP,"P30, TNFα 3 nM",31 s
same,TTP,"P30, TNFα 9 nM",60 s
same,TTP,"P30, TNFα 18 nM",22 s
same,TTP,"P30, TNFα 37.5 nM",4.1 s
same,TTP,"P31, TNFα 1.5 nM",306 s
same,TTP,"P31, TNFα 3 nM",84 s
same,TTP,"P31, TNFα 9 nM",9.8 s
same,TTP,"P31, TNFα 18 nM",46 s
same,TTP,"P31, TNFα 37.5 nM",42 s
same,detected range at incubation,after dilution factor and unit conversion,1.3 to 32.5 mg/L

# “And” between values parts separate entries of the source, which are not always exact repeats. Equal entries are not always repeated.
